Reference: patent publication US11413279B2, “Methods and compositions for the antiviral use of synthetic lysine analogs and mimetics” (priority 2017, dated 2022)

What was measured:
[1] = system: Herpes Simplex Virus Type 1 (HSV-1); settings: tranexamic acid 2.0% (w/v); high virus inocula; vs input virus control average 6.46
[2] = system: Human Immunodeficiency Virus Type 1 (HIV-1); settings: high virus inocula; for Output Viral Titer (Log10TCID50) / Titer (Log10TCID50/mL) / Reduction (%): contact time 48 ± 8 hours
[3] = system: Herpes Simplex Virus Type 2 (HSV-2)

NC[C@H]1CC[C@H](C(=O)O)CC1 [Tranexamic Acid, tranexamic acid]
Log10 Reduction [1]: 0.75 Log10 and 1.04 Log10
Output Viral Titer (Log10TCID50) ([2]; tranexamic acid 2.0% (w/v)): 5.83 Log10TCID50 and 6.01 Log10TCID50
Titer (Log10TCID50/mL) ([2]; tranexamic acid 2.0% (w/v)): 5.83 ± 0.00 Log10TCID50/mL and 6.01 ± 0.09 Log10TCID50/mL and 6.01 ± 0.11 Log10TCID50/mL
Reduction (%) ([2]; tranexamic acid 2.0% (w/v), listed as tranexamic acid): 41.1%
Output Viral Titer (Log10TCID50) ([2]; tranexamic acid 3.0% (w/v)): 5.83 Log10TCID50 and 5.71 Log10TCID50 and 6.01 Log10TCID50
Reduction (%) ([2]; tranexamic acid 3.0% (w/v)): 55.3%
Titer (Log10TCID50/mL) ([2]; tranexamic acid 3.0% (w/v)): 5.83 ± 0.00 Log10TCID50/mL and 5.71 ± 0.10 Log10TCID50/mL and 6.01 ± 0.09 Log10TCID50/mL
Reduction (%) ([2]; tranexamic acid 4.0% (w/v)): 94.2% and 95.6% and 97.1%
Log10 Reduction ([2]; tranexamic acid 4.0% (w/v), vs input virus control average 6.06): 1.24 Log10 and 1.36 Log10 and 1.54 Log10
Log10 Reduction ([3]; tranexamic acid 0.5% (w/v), low virus inocula, vs input virus control average 6.22): 0.68 Log10 and 0.45 Log10 and 0.51 Log10
Log10 Reduction ([3]; tranexamic acid 1.0% (w/v), high virus inocula, vs input virus control average 7.83): 0.21 Log10 and 0.39 Log10 and 0.45 Log10
Log10 Reduction ([3]; tranexamic acid 1.0% (w/v), low virus inocula, vs input virus control average 6.22): 0.62 Log10 and 0.39 Log10 and 0.33 Log10

Values joined by “and” are separate entries in the source; they are usually repeats but may differ in a detail not shown here. Identical values can stand only once. Like-named read-outs stand apart in the source and are kept apart here.
